Laboratory results: patent US10947274B1 (priority 2018, dated 2021)

Chains of the proteins cited; added tags and fusions are not shown. Residues count along the entry.
UniProt Q9GZZ6, 25-450 limits assumed: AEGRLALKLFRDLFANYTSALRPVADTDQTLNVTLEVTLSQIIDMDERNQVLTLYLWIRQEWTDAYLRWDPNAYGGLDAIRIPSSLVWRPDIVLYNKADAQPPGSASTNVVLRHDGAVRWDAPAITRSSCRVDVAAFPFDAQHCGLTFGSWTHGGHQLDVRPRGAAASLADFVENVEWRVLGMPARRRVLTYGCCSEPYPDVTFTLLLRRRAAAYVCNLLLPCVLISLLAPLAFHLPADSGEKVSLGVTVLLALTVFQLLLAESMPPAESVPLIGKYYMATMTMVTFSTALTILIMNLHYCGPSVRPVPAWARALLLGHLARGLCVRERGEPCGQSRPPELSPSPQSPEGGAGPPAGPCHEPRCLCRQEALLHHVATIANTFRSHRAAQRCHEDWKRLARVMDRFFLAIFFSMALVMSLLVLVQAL
UniProt Q9UGM1, 26-479 limits assumed: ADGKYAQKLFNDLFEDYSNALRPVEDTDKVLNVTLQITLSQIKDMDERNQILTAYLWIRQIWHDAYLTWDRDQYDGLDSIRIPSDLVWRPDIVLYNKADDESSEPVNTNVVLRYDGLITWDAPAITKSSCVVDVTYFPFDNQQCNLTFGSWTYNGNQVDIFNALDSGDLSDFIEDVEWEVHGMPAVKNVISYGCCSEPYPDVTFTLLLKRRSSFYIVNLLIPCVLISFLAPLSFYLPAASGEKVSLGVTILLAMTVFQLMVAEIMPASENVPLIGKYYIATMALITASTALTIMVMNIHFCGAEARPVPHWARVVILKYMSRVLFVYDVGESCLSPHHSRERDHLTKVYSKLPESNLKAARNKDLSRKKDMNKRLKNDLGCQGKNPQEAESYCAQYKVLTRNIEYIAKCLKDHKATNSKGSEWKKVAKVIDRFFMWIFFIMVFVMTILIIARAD

Biological target: human α9α10 nAChR (Homo sapiens, UniProt Q9GZZ6+Q9UGM1)
Assay: Block of acetylcholine response at cloned human α9α10 nAChR expressed in Xenopus oocytes (voltage clamp)
Settings: Table 1

C[C@@H](O)[C@@H]1NC(=O)[C@H]2NC(=O)[C@@H](NC(=O)CN)CSSC[C@H](NC(=O)[C@H](CCCNC(=N)N)NC(=O)[C@@H]3CCCN3C(=O)[C@H](CC(=O)O)NC1=O)C(=O)N[C@@H](CCCNC(N)=O)C(=O)N[C@@H](Cc1ccc(O)c(I)c1)C(=O)N[C@@H](CCC(N)=O)C(=O)N[C@H](C(=O)N[C@H](Cc1ccc(O)cc1)C(=O)O)CSSC2(C)C
IC50: 4.6 nM

Some compounds may have been tested in ways that are not shown here.
